How the values were obtained:
HLA-A*0301 = HLA-A*0301 (Homo sapiens, UniProt P04439); assay type: binding
HLA-A*0201 = HLA-A*0201 (Homo sapiens, UniProt P04439, D140Y/D185E/D98H/E176V/E277Q/G131W/G231S/I119V/I121R/I166T/I218V/L300P/L318F/N151K/N90K/P208A/P217A/Q86G/Q94H/R138H/R169H/T345S); assay type: binding

Sequence	Stability (%) (HLA-A*0301)	Stability (%) (HLA-A*0201)
EILPVSMTK	2	–
FTISVTTEI	–	29

Reference: paper PMC10232890, “Impact of peptide:HLA complex stability for the identification of SARS-CoV-2-specific CD8^+T cells” (Frontiers in Immunology, 2023)
